Test system: CCCCC/C=C/C(=O)SCCNC(=O)CCNC(=O)[C@H](O)C(C)(C)COP(=O)(O)OP(=O)(O)OC[C@H]1O[C@@H](n2cnc3c(N)ncnc32)[C@H](O)[C@@H]1OP(=O)(O)O
Test: purified protein
Conditions: 350 μM NADPH

| Substance | Km | kcat | kcat/Km |
| --- | --- | --- | --- |
| saFabI (Staphylococcus aureus subsp. aureus MRSA252; Y147F) | 44.2 ± 14.5 µM | 12.1 s⁻¹ | 273000 M⁻¹ s⁻¹ |
| saFabI (Staphylococcus aureus subsp. aureus MRSA252; S189A) | – | – | 25000 ± 667 M⁻¹ s⁻¹ |
| saFabI (Staphylococcus aureus subsp. aureus MRSA252; D249A) | – | – | 200 ± 16.7 M⁻¹ s⁻¹ |
